What was measured:
HCoV-229E [1] = test: HCoV-229E-Luc infection assay (luciferase) in Huh-7 cells; type: cell-based; details: purified compounds, CC50/IC50, Huh-7 (head prints Huh-7/TMPRSS2)
HCoV-229E [2] = test: HCoV-229E-Luc infection assay (luciferase) in Huh-7/TMPRSS2 cells; type: cell-based; details: purified compounds, CC50/IC50, Huh-7/TMPRSS2

SMILES	SI (column after Huh-7 IC50) (HCoV-229E [1])	Huh-7/TMPRSS2 SI (HCoV-229E [2])
CC1(C)CC[C@]2(C(=O)O)CC[C@]3(C)C(=CC[C@@H]4[C@@]5(C)CC[C@H](OC(=O)/C=C/c6ccc(O)cc6)C(C)(C)[C@@H]5CC[C@]43C)[C@@H]2C1 [F7-1, 3-O-trans-p-coumaroyl-oleanolic acid]	3	3
C[C@H]1[C@H](C)CC[C@]2(C(=O)O)CC[C@]3(C)C(=CC[C@@H]4[C@@]5(C)C[C@@H](OC(=O)/C=C\c6ccc(O)cc6)[C@H](O)C(C)(C)[C@@H]5CC[C@]43C)[C@H]12 [F2-3, 3β-hydroxy-2α-cis-p-coumaryloxy-urs-12-en-28-oic acid]	3	3
C[C@H]1[C@H](C)CC[C@]2(C(=O)O)CC[C@]3(C)C(=CC[C@@H]4[C@@]5(C)C[C@@H](OC(=O)/C=C/c6ccc(O)cc6)[C@H](O)C(C)(C)[C@@H]5CC[C@]43C)[C@H]12 [F2-2, 3β-hydroxy-2α-trans-p-coumaryloxy-urs-12-en-28-oic acid]	3	3
CC1(C)CC[C@]2(C(=O)O)CC[C@]3(C)C(=CC[C@@H]4[C@@]5(C)CC[C@H](OC(=O)/C=C/c6ccc(O)c(O)c6)C(C)(C)[C@@H]5CC[C@]43C)[C@@H]2C1 [F4-2, 3-O-trans-caffeoyl-oleanolic acid]	6	7
